Measurements taken from paper PMC9302720, “The structural role of SARS-CoV-2 genetic background in the emergence and success of spike mutations: The case of the spike A222V mutation” (2022).

Molecular target: SARS-CoV-2 protein S ectodomain, S:D614G variant (SARS-CoV-2 | not stated) (UniProt P0DTC2)
Assay: BLI

“N-terminal peptidase domain of human ACE2 (domain or fragment)” gave a Kd of 65.7 nM, a koff of 0.0202 s⁻¹ and a kon of 303000 M⁻¹ s⁻¹.
